Laboratory results: the supplement of paper PMC12637763
The other results are listed elsewhere or left out. Env chains of viruses from a treatment-interruption trial, translated from the printed DNA. IC50 / IC80 of two broadly neutralizing antibodies; lower = more sensitive virus; >50 µg/ml means not reached and <0.001 µg/ml is below the lowest dose. No active / inactive call.

Tests used:
antibody 10-1074 [1] = test: neutralization IC50; higher = virus less sensitive to the antibody
Method: (§1)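 Pseudovirus bearing the Env chain mixed with antibody, from 50 µg/ml in fivefold dilutions, on TZM-bl reporter cells, in duplicate.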

antibody 3BNC117 [2] = test: as above
Method: as §1

antibody 10-1074 [3] = test: neutralization IC80; higher = virus less sensitive to the antibody
Method: as §1

antibody 3BNC117 [4] = test: as above
Method: as §1

Binder | neutralization IC50 (antibody 10-1074 [1]) [µg/mL] | neutralization IC50 (antibody 3BNC117 [2]) [µg/mL] | neutralization IC80 (antibody 10-1074 [3]) [µg/mL] | neutralization IC80 (antibody 3BNC117 [4]) [µg/mL]
HIV-1 Env, rebound clone, antibody arm (protein) MKAKETRKNYQHLWRWGIMLLGMLMICSAASQLWVTVYYGVPVWKEATTTLFCASDAKAYDTEVHNVWATHACVPTDPNPQEVVLGNVTEDFNMWKNNMVEQMHEDIISLWDQSLKPCVKITPLCVTLNCTEYINDTSTTWGQMEKGEIKNCSFNVTTNIKNKMQKEYALFYKLDVVPIGDNSTNYRLIKCNTSAITQACPKVSFQPIPIHYCAPAGFAILKCNNKTFNGLGPCTNVSTVQCTHGIRPVVSTQLLLNGSLAEEEIVIRSENFSDNAKNIIVHLNASIEINCTRPNNNTRKSITIGPGRAFYATGDVIGDIRQAHCNISGEKWNEALKQIAIKLREQFGHNKTIVFNQSSGGDPEIVAHSVNCGGEFFYCNSTKLFNSTWHSNGIQNNTTESNETITLPCKIKQIINLWQEVGKAIYAPPISGPIRCSSNITGLLLTRDGGNTSETNKETFRPGGGDMRDNWRSELYKYKVVKIEPLGVAPTKAKRRVVQRERRAVGTFGALFLGFLGTAGSTMGAASITLTVQARQLLSGIVQQQNNLLKAIEAQQHLLQLTVWGIKQLQARVLAVERYLKDQQLLGLWGCSGKLICTTTVPWNASWSNKSLEQIWENMTWMQWEKEIDNYTGIIYSLISESQLQQEKNEKELLELDKWASLWTWFDITNWLWYIKIFIMIVGGLIGLRIVFAVLSIVNKVRKGYSPLSFQTRLPTPRGPDRPEGIEEEGGERGRDTSIRLVDGFLALIWDDLRNLCLFSYHHLRDLILIVVRTVELLGRRGWELLKYWWNLLKYWSQELKKSAVSLFNAAAIAVAEGTDRVIEVVQRAGRGILHVPRRIRQGLERALQ | 0.002 | 0.105 | 0.008 | 0.379
HIV-1 Env, rebound clone, antibody arm (protein) MKAKETRKNYQHLWRWGIMLLGMLMICSAASQLWVTVYYGVPVWKEATTTLFCASDAKAYDTEVHNVWATHACVPTDPNPQEVVLGNVTEDFNMWKNNMVEQMHEDIISLWDQSLKPCVKITPLCVTLNCTEYINDTSTTWGQMEKGEIKNCSFNVTTNIKNKMQKEYALFYKLDVVPIGDNSTNYRLIKCNTSAITQACPKVSFQPIPIHYCAPAGFAILKCNNKTFNGLGPCTNVSTVQCTHGIRPVVSTQLLLNGSLAEEEIVIRSENFSDNAKNIIVHLNASIEINCTRPNNNTRKSITIGPGRAFYATGDVIGDIRQAHCNISGEKWNEALKQIAIKLREQFGHNKTIVFNQSSGGDPEIVAHSVNCGGEFFYCNSTKLFNSTWHSNGIQNNTTESNETITLPCKIKQIINLWQEVGKAIYAPPISGPIRCSSNITGLLLTRDGGNTSETNKEIFRPGGGDMRDNWRSELYKYKVVKIEPLGVAPTKAKRRVVQRERRAVGTFGALFLGFLGTAGSTMGAASITLTVQARQLLSGIVQQQNNLLKAIEAQQHLLQLTVWGIKQLQARVLAVERYLKDQQLLGLWGCSGKLICTTTVPWNASWSNKSLEQIWENMTWMQWEKEIDNYTGIIYSLISESQLQQEKNEKELLELDKWASLWTWFDITNWLWYIKIFIMIVGGLIGLRIVFAVLSIVNKVRKGYSPLSFQTRLPTPRGPDRPEGIEEEGGERGRDTSIRLVDGFLALIWDDLRNLCLFSYHHLRDLILIVVRTVELLGRRGWELLKYWWNLLKYWSQELKKSAVSLFNAAAIAVAEGTDRVIEVVQRAGRGILHVPRRIRQGLERALQ | 0.002 | 0.166 | 0.008 | 0.726
HIV-1 Env, rebound clone, antibody arm (protein) MRAKGIRKNCQDLLKGGILLLGILMICSAAGNLWVTVYYGVPVWKDATTTLFCASDAKGYSKEAHNVWATHACVPTDPDPREIVMGNVTENFNMWKNDMVDQMHEDIISLWDQSLKPCVKLTPLCVTLNCTNLNITNLNNTNSNTSDTNNNTSSENGSEEMKNCSFNVTTIKGKYQKEYAVLYKLDLVPIDNNDNTSYMLINCNTSVITQACPKISFEPIPIHYCAPAGFAILKCNNKTFNGTGPCTNVSSVQCTHGIRPVVSTQLLLNGSLAEEEVVIRSENFTDNAKTIIVQLKDPIQINCTRPNNNTRKSIHIGPGRAFYATGQIIGNIRQAYCNISKEQWNEALNQTVRKLREQFGNKTMIFNQSSGGDPEIVMHTFNCGGEFFYCNTTQLFNSTWYDTTNSTDSNNNTIKLPCRIKQVINRWQEVGKAMYAPPISGPIRCSSNITGLLLVRDGGNNNSSNSSETFRPGGGNMKDNWRSELYKYKVVKIEPLGVAPTKAKRRVVQRERRAVTLGAMFLGFLGTAGSTMGAASLTLTVQARQLLSGIVQQQSNLLRAIEVHQHMLQLTVWGIKQLQARVLAVERYLKDQQLLGIWGCSGKLICTTTVPWNASWSKKNLSEIWDNMTWIEWEREIQNYTEEIYSLIEKSQNQQAKNEQELLELDKWANLWNWFDITNWLWYIKIFIMIVGGLIGLRIVFTVLSIVNRVRQGYSPLSFQTRLPTQRGPDRPGGTEEEGGERDRDTSRPLVDGFLAIIWVDLRSLFLFSYHRLRDLLLIVTRIVETLGRRGWELLKYWWNLLQYWSQELKNSAISLLNATAIAVAEGTDRVIELIQRAGRAIIHIPRRIRQGLESALL | > 50 | 0.267 | > 50 | 1.16
